Measured values as given in publication PMC12257397, “Scaffold Hopping Strategy toward New 4‑Aminoquinazolines Active Against Extracellular and Intracellular Mycobacterium tuberculosis” (ACS Medicinal Chemistry Letters, 2025).
Values joined by “and” are separate entries in the source; they are usually repeats but may differ in a detail not shown here. Equal entries are not always repeated. Where two headings read alike, the source gives them in different places. Marks after values point to notes of the source that are not given here.

Assays:
HepG2 cells [1] = conditions: SI = CC50/MIC H37Rv-LP; MTT method
Vero cells [2] = conditions: SI = CC50/MIC H37Rv-LP; NR assay
Vero cells [3] = conditions: SI = CC50/MIC H37Rv-LP; MTT method
HepG2 cells [4] = conditions: SI = CC50/MIC H37Rv-LP; NR assay
HepG2 cells [5] = conditions: SI = CC50/MIC H37Rv-LP; for SI HepG2+Gal: galactose medium; for SI HepG2+Glu: glucose medium

In the case of Cc1nc(NCCc2ccc3ccccc3c2)c2cc(I)ccc2n1 [17d], the “SI HepG2” value (HepG2 cells [1]) was 4.9, the “SI Vero” value (Vero cells [2]) was 7.4 and the “SI Vero” value (Vero cells [3]) was 6.9. For the same compound, the “SI HepG2” value (HepG2 cells [4]) was 3.4, the “SI HepG2+Gal” value (HepG2 cells [5]) was 3.7 and the “SI HepG2+Glu” value (HepG2 cells [5]) was 5.1.

Cc1nc(NCCc2ccc(OC(F)(F)F)cc2)c2cc(I)ccc2n1 [13d] was tested, and the “SI HepG2” value (HepG2 cells [1]) was 2.0; ^c 2.0 ^d, the “SI Vero” value (Vero cells [2]) was < 1 and the “SI Vero” value (Vero cells [3]) was 1.2. For the same compound, the “SI HepG2” value (HepG2 cells [4]) was 2.0; ^c 2.0 ^d, the “SI HepG2+Gal” value (HepG2 cells [5]) was 0.6 and the “SI HepG2+Glu” value (HepG2 cells [5]) was 0.9.

In the case of Cc1nc(NCCCc2ccccc2)c2cc(Br)ccc2n1 [18c], the “SI HepG2” value (HepG2 cells [1]) was 49.3, the “SI Vero” value (Vero cells [2]) was 50.0 and the “SI Vero” value (Vero cells [3]) was 41.4. For the same compound, the “SI HepG2” value (HepG2 cells [4]) was 47.1, the “SI HepG2+Gal” value (HepG2 cells [5]) was 34.6 and the “SI HepG2+Glu” value (HepG2 cells [5]) was 68.2.

With Cc1ccc(CCNc2nc(C)nc3ccc(I)cc23)cc1 [15d] the “SI HepG2” value (HepG2 cells [1]) was 21 and 21.3, the “SI Vero” value (Vero cells [2]) was 26.3 and the “SI Vero” value (Vero cells [3]) was 22.3. The “SI HepG2” value (HepG2 cells [4]) was 22.1, the “SI HepG2+Gal” value (HepG2 cells [5]) was 13.8 and the “SI HepG2+Glu” value (HepG2 cells [5]) was 23.8.

For Cc1nc(NCCc2ccc(OC(F)(F)F)cc2)c2cc(Br)ccc2n1 [13c], the “SI HepG2” value (HepG2 cells [1]) was <1; ^c <1 ^d, the “SI Vero” value (Vero cells [2]) was <1; ^c <1 ^d and the “SI Vero” value (Vero cells [3]) was <1; ^c <1 ^d. For the same compound, the “SI HepG2” value (HepG2 cells [4]) was <1; ^c <1 ^d, the “SI HepG2+Gal” value (HepG2 cells [5]) was 0.3 and the “SI HepG2+Glu” value (HepG2 cells [5]) was 0.4.

Cc1nc(NCCCc2ccccc2)c2cc(I)ccc2n1 [18d] was tested, and the “SI HepG2” value (HepG2 cells [1]) was > 34.5, the “SI Vero” value (Vero cells [2]) was 27.8 and the “SI Vero” value (Vero cells [3]) was 25.7. The “SI HepG2” value (HepG2 cells [4]) was 31.6, the “SI HepG2+Gal” value (HepG2 cells [5]) was 22.4 and the “SI HepG2+Glu” value (HepG2 cells [5]) was 35.0.

In the case of Cc1nc(NCCc2ccc3ccccc3c2)c2cc(Br)ccc2n1 [17c], the “SI HepG2” value (HepG2 cells [1]) was <1; ^c <1 ^d, the “SI Vero” value (Vero cells [2]) was 2.6 and the “SI Vero” value (Vero cells [3]) was 2.0. For the same compound, the “SI HepG2” value (HepG2 cells [4]) was <1; ^c <1 ^d, the “SI HepG2+Gal” value (HepG2 cells [5]) was 0.7 and the “SI HepG2+Glu” value (HepG2 cells [5]) was 1.8.

In the case of CCc1ccc(CCNc2nc(C)nc3ccc(Br)cc23)cc1 [16c], the “SI HepG2” value (HepG2 cells [1]) was <1; ^c < 1 ^d, the “SI Vero” value (Vero cells [2]) was 2.8 and the “SI Vero” value (Vero cells [3]) was < 1. For the same compound, the “SI HepG2” value (HepG2 cells [4]) was <1; ^c < 1 ^d, the “SI HepG2+Gal” value (HepG2 cells [5]) was 0.8 and the “SI HepG2+Glu” value (HepG2 cells [5]) was 2.0.

With Cc1nc(NCCCc2ccccc2)c2ccccc2n1 [18a] the “SI HepG2” value (HepG2 cells [1]) was 2.3, the “SI Vero” value (Vero cells [2]) was 6.0 and the “SI Vero” value (Vero cells [3]) was 4.9. The “SI HepG2” value (HepG2 cells [4]) was < 1, the “SI HepG2+Gal” value (HepG2 cells [5]) was 1.6 and the “SI HepG2+Glu” value (HepG2 cells [5]) was 4.8.

For Cc1nc(NCCc2ccc(Cl)cc2)c2cc(I)ccc2n1 [11d], the “SI HepG2” value (HepG2 cells [1]) was 12, the “SI Vero” value (Vero cells [2]) was 14.0 and the “SI Vero” value (Vero cells [3]) was 2.70. The “SI HepG2” value (HepG2 cells [4]) was 7.9, the “SI HepG2+Gal” value (HepG2 cells [5]) was 3.9 and the “SI HepG2+Glu” value (HepG2 cells [5]) was 5.0.

COc1ccc(CCNc2nc(C)nc3ccc(I)cc23)cc1 [10d] was tested, and the “SI HepG2” value (HepG2 cells [1]) was 12 and 12.1, the “SI Vero” value (Vero cells [2]) was 17.3 and the “SI Vero” value (Vero cells [3]) was 9.8. The “SI HepG2” value (HepG2 cells [4]) was 9.2, the “SI HepG2+Gal” value (HepG2 cells [5]) was 7.0 and the “SI HepG2+Glu” value (HepG2 cells [5]) was 11.7.

CCc1ccc(CCNc2nc(C)nc3ccc(I)cc23)cc1 [16d] was tested, and the “SI HepG2” value (HepG2 cells [1]) was 4.4; ^c 4.4 ^d, the “SI Vero” value (Vero cells [2]) was 4.7 and the “SI Vero” value (Vero cells [3]) was 3.2. For the same compound, the “SI HepG2” value (HepG2 cells [4]) was 4.4; ^c 4.4 ^d, the “SI HepG2+Gal” value (HepG2 cells [5]) was 2.8 and the “SI HepG2+Glu” value (HepG2 cells [5]) was 3.9.

With Cc1nc(NCCc2ccccc2)c2cc(I)ccc2n1 [9d] the “SI HepG2” value (HepG2 cells [1]) was 9.0, the “SI Vero” value (Vero cells [2]) was 12.3; ^c 12.3 ^d and the “SI Vero” value (Vero cells [3]) was 12.3; ^c 12.3 ^d. For the same compound, the “SI HepG2” value (HepG2 cells [4]) was 8.3, the “SI HepG2+Gal” value (HepG2 cells [5]) was 5.4 and the “SI HepG2+Glu” value (HepG2 cells [5]) was 11.5.

In the case of COc1ccc2nc(C)nc(NCCCc3ccccc3)c2c1 [18b], the “SI HepG2” value (HepG2 cells [1]) was > 13.0, the “SI Vero” value (Vero cells [2]) was 11.6 and the “SI Vero” value (Vero cells [3]) was 9.7. The “SI HepG2” value (HepG2 cells [4]) was 11.3, the “SI HepG2+Gal” value (HepG2 cells [5]) was 7.3 and the “SI HepG2+Glu” value (HepG2 cells [5]) was 9.3.

c1ccc(CCCNc2ncnc3ccccc23)cc1 [18e] was tested, and the “SI HepG2” value (HepG2 cells [1]) was <1; ^c <1 ^d, the “SI Vero” value (Vero cells [2]) was <1; ^c <1 ^d and the “SI Vero” value (Vero cells [3]) was <1; ^c <1 ^d. For the same compound, the “SI HepG2” value (HepG2 cells [4]) was <1; ^c <1 ^d, the “SI HepG2+Gal” value (HepG2 cells [5]) was 0.1 and the “SI HepG2+Glu” value (HepG2 cells [5]) was 0.5.
